Molecules are shown by their SMILES.

The subject of assay [1] is WSN virus (human influenza virus H1N1).
The subject of assay [2] is QH-WSN virus (avian influenza virus H5N1).
Assay [3] has as its system JX virus (human influenza virus H3N2).

The term IC50 denotes the point on the concentration scale where inhibition reaches its midpoint. Read a high IC50 as lower potency. With `CC[C@H](C)[C@H](NC(=O)[C@H](C)NC(=O)[C@H](CCCCN)NC(=O)[C@H](CCC(N)=O)NC(=O)[C@@H](NC(=O)[C@H](CO)NC(=O)[C@H](CCC(=O)O)NC(=O)[C@@H](N)CCCCN)[C@@H](C)O)C(=O)N[C@@H](CC(=O)O)C(=O)NCC(=O)N[C@H](C(=O)N[C@H](C(=O)N[C@@H](CC(N)=O)C(=O)N[C@@H](CCCCN)C(=O)N[C@H](C(=O)N[C@@H](CC(N)=O)C(=O)N[C@@H](CO)C(=O)N[C@H](C(=O)N[C@H](C(=O)N[C@@H](CC(=O)O)C(=O)N[C@@H](CCCCN)C(=O)O)[C@@H](C)CC)[C@@H](C)CC)C(C)C)[C@@H](C)O)C(C)C` [HR1], the half-inhibitory concentration (IC50) in assay [1] was determined as 11.1 ± 3.8 µM; in assay [2], 15.8 ± 2.3 µM; in assay [3], 16.4 ± 2.5 µM.

The record behind these values is US8470771B2, “Method and medicament for inhibiting the infection of influenza virus” (priority 2007, dated 2013).
